In the assay the target is T1, WT HIV-1 RT (Human immunodeficiency virus type 1 group M subtype B, UniProt P03366).
T1 construct: viral nucleotides (dNTPs) and the HIV-1 RT enzyme in an incubation buffer; purchased Roche
In words: HIV-1 RT inhibition assay (Roche kit, ELISA). The class given is biochemical. From the text: An assay kit for HIV-1 reverse transcriptase (RT) from Roche was utilized to assess RT inhibition. The kit provided all necessary components for the RT reaction, and the enzyme-linked immunosorbent assay (ELISA) methodology for the inhibition assay was executed according to the kit’s instructions. […] Unbound dNTPs were washed away, and an anti-[…] (DIG)-POD working solution was introduced. […] Excess anti-DIG-POD was removed, and a peroxidase substrate (ABTS) solution was applied to the MTPs. […] The percentage of the inhibitory activity of the RT inhibitors was calculated by formula, as given below:
% Inhibition = [O.D. value with RT but without inhibitors − O.D. value with RT and inhibitors]/[O.D. value with RT […] − O.D. value without RT and inhibitors].
Background: An ELISA detects its analyte on a solid surface through an enzyme-linked reagent.

This passage reports IC50 results from publication PMC11354745, “Discovery of Novel Amino Acids (Analogues)-Substituted Thiophene[3,2-d]pyrimidine Derivatives as Potent HIV-1 Non-Nucleoside Reverse Transcriptase Inhibitors: Design, Synthesis, and Biological Evaluation” (International Journal of Molecular Sciences, 2024).

Usually IC50 stands for the concentration needed to halve the response being measured. High values mean lower potency, low ones higher potency.

As to `Cc1cc(C#N)cc(C)c1Oc1nc(Nc2ccc(C#N)cc2)nc(N)c1Br` [ETR, etravirine, reference compound], the IC50 was 18 ± 2 nM.
